Share of PSTVd loop 15 variants by leaf site

From the data files of Wu et al. 2024, doi:10.1371/journal.ppat.1012142.

The pool varies loop 15 of the PSTVd intermediate strain in the pattern GGAAACCGNNNNNNC; wild type is GGAAACCGCUACUAC (upper and lower strand joined, each 5' to 3', the first 7 letters being the upper strand, closing pairs included).

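A pool of all variants was put on leaves of three Nicotiana benthamiana plants. Progeny were sequenced from the inoculated region (day 5), the margin of the inoculated leaf (day 10) and systemic leaves (day 12).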

Values are reads per thousand in the sample; higher means more abundant, 0 means not found. Each value is the mean of three plants. "Pool" is the share in the plasmid pool used as inoculum, on the same scale. The inoculated region was read from the minus strand, the other sites from the plus strand. IR is the inoculated region, LM the leaf margin, Sys the systemic leaves. The authors trace changes outside the varied positions to PCR and sequencing errors or to mutation in the plant; presence does not show that a variant is infectious alone. For reference, wild type rose from 33.9 per thousand in the pool to 202, 200, 159 (inoculated region), 724, 746, 710 (leaf margin) and 856, 883, 880 (systemic leaves). Samples held 43,870 to 66,106 reads, so the smallest values rest on one or two reads.

GGAAACCGUGGGGCC (pool 0.144) read IR 0.0777; LM 0.0401; Sys 0.
GGAAACCGUGUUAAC (pool 0.336) read IR 0.173; LM 0.0134; Sys 0.00537.
GGAAACCGCGCUCUC (pool 0.240) read IR 0.0678; LM 0.0187; Sys 0.
GGAAACCGAAUCCUC (pool 0.256) read IR 0.155; LM 0.00539; Sys 0.
GGAAACCGAAAUACC (pool 0.208) read IR 0.129; LM 0.00742; Sys 0.
GGAAACCGCAGUGCC (pool 0.272) read IR 0.0380; LM 0.0121; Sys 0.
GGAAACCGGAUCUCC (pool 0.288) read IR 0.103; LM 0; Sys 0.
GGAAACCGUUAAUAC (pool 0.144) read IR 0.298; LM 0.131; Sys 0.00537.
GGAAACCGUUCUCGC (pool 0.208) read IR 0.269; LM 0.0121; Sys 0.
GGAAACCGGGACAAC (pool 0.336) read IR 0.0860; LM 0; Sys 0.
GGAAACCGCUAAUUC (pool 0.208) read IR 0.547; LM 0.127; Sys 0.0688.
GGAAACCGCUUGCUC (pool 0.368) read IR 0.0986; LM 0.00742; Sys 0.
GGAAACCGUCCCCAC (pool 0.336) read IR 0.0868; LM 0.00668; Sys 0.00537.
GGAAACCGUACACUC (pool 0.176) read IR 0.129; LM 0.00668; Sys 0.
GGAAACCGCUUGAUC (pool 0.256) read IR 0.134; LM 0; Sys 0.00537.
GGAAACCGUACUUUC (pool 0.208) read IR 0.313; LM 0.0993; Sys 0.00537.
GGAAACCGCUGAUGC (pool 0.224) read IR 0.113; LM 0; Sys 0.
GGAAACCGCACGCUC (pool 0.224) read IR 0.0669; LM 0.0208; Sys 0.
GGAAACCGACUUUGC (pool 0.160) read IR 0.108; LM 0; Sys 0.
GGAAACCGGAAUGGC (pool 0.288) read IR 0.0824; LM 0; Sys 0.
GGAAACCGAUCAGUC (pool 0.256) read IR 0.113; LM 0.0200; Sys 0.
GGAAACCGUUACCAC (pool 0.256) read IR 0.321; LM 0.128; Sys 0.0386.
GGAAACCGUCUGAGC (pool 0.352) read IR 0.0553; LM 0.0269; Sys 0.
GGAAACCGUGCCUUC (pool 0.240) read IR 0.291; LM 0.118; Sys 0.0107.
GGAAACCGCUAUCGC (pool 0.192) read IR 0.181; LM 0.0134; Sys 0.00537.
GGAAACCGAAGCUAC (pool 0.256) read IR 0.422; LM 0.107; Sys 0.0130.
GGAAACCGAUAUAUC (pool 0.240) read IR 0.460; LM 0.0869; Sys 0.0511.
GGAAACCGCUGACUC (pool 0.144) read IR 0.0633; LM 0.00668; Sys 0.
GGAAACCGACAAAUC (pool 0.224) read IR 0.312; LM 0.0872; Sys 0.0215.
GGAAACCGUGAUCCC (pool 0.336) read IR 0.129; LM 0.0108; Sys 0.
GGAAACCGUGACUAC (pool 0.208) read IR 0.382; LM 0.0967; Sys 0.0259.
GGAAACCGUAAUCAC (pool 0.192) read IR 0.325; LM 0.122; Sys 0.0708.
GGAAACCGAUACAGC (pool 0.256) read IR 0.0666; LM 0.00668; Sys 0.
GGAAACCGUGCAACC (pool 0.224) read IR 0.0696; LM 0.0182; Sys 0.
GGAAACCGGUUGUAC (pool 0.288) read IR 0.320; LM 0.189; Sys 0.0898.
GGAAACCGCUGUAUC (pool 0.192) read IR 0.101; LM 0; Sys 0.
GGAAACCGAGGAUUC (pool 0.416) read IR 0.130; LM 0.0128; Sys 0.0107.
GGAAACCGUGUCUCC (pool 0.208) read IR 0.0785; LM 0.00742; Sys 0.

Excerpt, the final 4 entries:

{"sequence": "GGAAACCGGUUGUAC", "pool": "0.288", "IR": 0.320, "LM": 0.189, "Sys": 0.0898}
{"sequence": "GGAAACCGCUGUAUC", "pool": "0.192", "IR": 0.101, "LM": 0, "Sys": 0}
{"sequence": "GGAAACCGAGGAUUC", "pool": "0.416", "IR": 0.130, "LM": 0.0128, "Sys": 0.0107}
{"sequence": "GGAAACCGUGUCUCC", "pool": "0.208", "IR": 0.0785, "LM": 0.00742, "Sys": 0}